Share of PSTVd loop 6 variants by leaf site

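Three N. benthamiana plants were inoculated with the whole mutant pool. Samples came from the inoculated region at 5 days, the leaf margin at 10 and upper systemic leaves at 12.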

PSTVd intermediate strain, loop 6: wild type UGACCGCGAG, pool pattern UNNNCGNNNG; upper and lower strand joined, each 5' to 3', the first 5 letters being the upper strand, closing pairs included.

Numbers give reads per thousand; 0 = not seen among the reads, higher = more abundant.
Each value is the mean of three plants.
"Pool" is the share in the plasmid pool used as inoculum, on the same scale.
The inoculated region was read from the minus strand, the other sites from the plus strand.
Sequences that differ at fixed positions probably stem from PCR or sequencing errors, and defective variants can be carried along by functional ones.

sequence	pool	inoculated region	leaf margin	systemic leaves
UAUUCGUUUG	0.471	0.0889	0.0169	0
UUCUCGUAAG	0.144	0.0719	0	0
UGCACGAAUG	0.366	0.107	0.00920	0
UGUCCGUCUG	0.235	0.0596	0	0
UGCCCGCAAG	0.0784	0.655	0.0239	0.0330
UACGCGUUCG	0.196	0.107	0.0184	0
UAGACGCGUG	0.288	0.100	0	0
UGACCGCAAG	0.0131	29.8	30.3	27.3
UCAGCGCUCG	0.222	0.0945	0.0155	0
UGACCGGGCG	0.118	0.149	0.0460	0.0569
UCCACGUACG	0.314	0.0648	0	0
UGGUCGGUUG	0.301	0.0657	0.0155	0
UAAGCGAACG	0.301	0.0838	0	0.00684
UAUUCGUAUG	0.458	0.125	0.137	0
UUGGCGGAGU	0.0131	0	0	0
UUUUCCCUGG	0.0131	0	0	0
UAUACUCGAG	0.0131	0	0.00920	0
UGAUCGCGUG	0.196	0.0942	0.0161	0
UUCUCGGGCG	0.144	0.0656	0	0
UCCUCGGCCG	0.170	0.0657	0.00920	0
UGUUCGUUCG	0.288	0.0589	0.00773	0
UGGGCGUAUG	0.222	0.106	0.0828	0
UUCCCGUGCG	0.222	0.100	0.0184	0
UGACCGGCUG	0.248	0.168	0.375	0.0205
UAGCCGAAGG	0.196	0.101	0.00920	0
UACCCGAGCG	0.248	0.0659	0	0
UGUGCGCGGG	0.288	0.0957	0	0
UACUCGGUCG	0.340	0.107	0.00773	0
UAUCCGUUGG	0.314	0.0948	0	0
UAGUCGUCGG	0.288	0.0712	0.00773	0
UCCCCGUUAG	0.431	0.0775	0.0161	0.00684
UCGACGAGGG	0.248	0.0537	0	0
UAGACGUCGG	0.288	0.101	0	0
UCAUCGCGAG	0.0915	0.360	0.159	0.0205
UAAUCGAGGG	0.235	0.0956	0	0
UCUGCGGGGG	0.196	0.125	0	0
UGCUCGCGCG	0.105	0.102	0.0276	0
UUUUCGUGAG	0.327	0.101	0.00773	0
UGGACGCAAG	0.144	0.179	0	0
UACUCGCAUA	0.0131	0	0	0
UGCACGACGG	0.196	0.119	0.00920	0
UUGUCUGUGG	0.0131	0	0	0
UCGGCGUCGG	0.261	0.118	0.00920	0
UUGACGAUCG	0.183	0.109	0	0
UCGACGAUCG	0.261	0.0714	0.00773	0
UGGACGACAG	0.222	0.0945	0	0
UACACGUGCG	0.157	0.102	0.00773	0
UGCUCGGCGG	0.183	0.0835	0	0
UGUACGAAUG	0.340	0.136	0	0
UUGACGCUAG	0.248	0.107	0.00920	0
UGAUCGGACG	0.209	0.101	0.00773	0.00684
UGAGCGUAGG	0.327	0.0769	0	0.00684
UUGACGUGGG	0.144	0.112	0.00920	0
UGUGCGUUGG	0.314	0.0942	0	0
UUGACGACAG	0.288	0.119	0.00920	0
UUAACGAACG	0.261	0.601	0.0592	0.0391
UGUGCGGGUU	0.0131	0	0	0
UGCACGGACG	0.209	0.0891	0	0
UCAUCGACCG	0.118	0.0760	0.00773	0
UAAUCGCCAG	0.261	0.0591	0	0
UCACCGGCUG	0.222	0.113	0.0309	0
UGCACGGAGU	0.0131	0.00579	0	0
UAGGCGCUCG	0.353	0.0779	0.0247	0
UACCCGACCG	0.144	0.101	0.00920	0
UAUGCGACAG	0.301	0.0769	0.0169	0
UUCACGAACG	0.340	0.529	0.0851	0
UAACCGCUAG	0.0392	0.631	0.126	0.0264

The opening 5 entries, copied out:

sequence,pool,inoculated region,leaf margin,systemic leaves
UAUUCGUUUG,0.471,0.0889,0.0169,0
UUCUCGUAAG,0.144,0.0719,0,0
UGCACGAAUG,0.366,0.107,0.00920,0
UGUCCGUCUG,0.235,0.0596,0,0
UGCCCGCAAG,0.0784,0.655,0.0239,0.0330

Samples held 36,220 to 57,551 reads, so the smallest values rest on one or two reads.
Wild type was 20.7 per thousand in the pool and the most common sequence in every sample (inoculated region 195, 198, 203; leaf margin 629, 591, 734; systemic leaves 942, 870, 868).

Source: Wu et al. 2024 (doi:10.1371/journal.ppat.1012142), supplementary data.